Measurements published in paper PMC2928791 (2010).

Molecular target: PV non-structural protein 2C^ATPase (wt) (poliovirus (PV; the paper's PV is type 1 Mahoney, PVM)) (UniProt P03300)
Experiment: co-IP

“CAV20 structural protein VP3 (wt) (natural protein)” was tested, and the percent of the level in the CAV20 2C^ATPase and CAV20 VP3 Co-IP reaction was 32%.
